Columns and labels:
[1] = system: Influenza A virus; assay: Inhibition of influenza A virus (A/duck/Minnesota/1525/1981 (H5N1)) replication in MDCK cells by neutral red uptake assay
[2] = system: Influenza A virus; assay: Inhibition of Influenza A virus (A/gull/Pennsylvania/4175/83 (H5N1)) replication in MDCK cells by neutral red uptake assay

SMILES | EC50 [1] | EC50 [2]
NC(=O)c1nc(F)cnc1O | 4500 nM | 
CCOC(=O)C1=C[C@@H](OC(CC)CC)[C@H](NC(C)=O)[C@@H](N)C1 [OSELTAMIVIR] |  | 280 nM

— ChEMBL document CHEMBL1142087 (Antimicrob Agents Chemother, 2007)
